Pooled drug test results. Numbers come from NIAID ChemDB, via PubChem.

Shared fields: tests in culture; agent: Cryptococcus neoformans

A number after MIC or MFC names an inhibition level or a share of isolates.

| structure | method | strain or isolate | dose | measure | result |
|---|---|---|---|---|---|
| CN[C@H]1CC[C@@H](c2ccc(Cl)c(Cl)c2)c2ccccc21 | broth dilution | 123.96 |  | MFC | 8 µg/mL |
| CC(C)(C)OC(=O)N1CCC(n2cc(C#N)nn2)CC1 | agar | NCIM576 | 200 µg/mL | inhibition | 0% |
| Oc1ccccc1C=Nc1ccccc1O |  | WP |  | MIC99 | 5.7 µg/mL |
| O=c1[nH]c(-c2cn(C3CCNCC3)nn2)no1 | agar | NCIM576 | 200 µg/mL | inhibition | 0% |
| NCCCC[C@H](NC(=O)[C@@H](N)CCCCN)C(=O)N[C@@H](CCC(N)=O)C(=O)N[C@@H](CCCN=C(N)N)C(=O)O |  | ATCC 32264 | 200 µM | inhibition | 100% |
| CCOC(=O)c1c(C)nc(NCCCCNc2ccnc3cc(Cl)ccc23)nc1-c1ccccc1[N+](=O)[O-] |  | VM-MCMMPI |  | MIC99 | 8 µg/mL |
| OC(Cn1cncn1)(Cn1cncn1)c1ccc(F)cc1F | colony count | Var. gattii (isolate 54713) | 1 µg/mL | inhibition | 91% |
| O=[N+]([O-])c1ccc(C=Nc2ccccc2O)cc1 |  | ATCC 24067 |  | MIC99 | 8 µg/mL |
| CCCCc1oc2ccccc2c1C(=O)c1cc(I)c(OCCN(CC)CC)c(I)c1 |  | 271 | 7 µM | inhibition | 100% |
| C[C@H]1[C@H](O)[C@@H](C)/C=C/C=C/C=C/C=C/C=C/C=C/C=C/[C@H](O[C@@H]2O[C@H](C)[C@@H](O)[C@H](N)[C@@H]2O)C[C@@H]2O[C@](O)(C[C@@H](O)C[C@@H](O)CC[C@H](O)[C@@H](O)C[C@@H](O)CC(=O)O[C@H]1C)C[C@H](O)[C@H]2C(=O)O | agar diffusion / agar |  | 4 µg/mL | zone | 24 mm |
| Cn1nc(Cc2ccc(Cl)cc2)c2ccccc2c1=O | broth dilution | Clinical isolate (IM 000319) |  | MIC80 | 62.5 µg/mL |
| CC(C)C[C@@H]1NC(=O)[C@H](C(C)C)NC1=O | agar diffusion / agar |  | 16 µg/mL | zone | 29 mm |
| CC(=O)OC[C@H]1O[C@@H](O[C@@H]2[C@@H](N=[N+]=[N-])[C@H](O)[C@H](O)[C@H]3OC(C)(C)O[C@H]32)[C@H](OC(C)=O)[C@@H](OC(C)=O)[C@H]1OC(C)=O | broth dilution / turbidity | ATCC 32264 | 15.6 µg/mL | inhibition | 0% |
| CCC(C)n1ncn(-c2ccc(N3CCN(c4ccc(OC[C@H]5CO[C@](Cn6cncn6)(c6ccc(Cl)cc6Cl)O5)cc4)CC3)cc2)c1=O | broth dilution | Clinical isolate (IM 983040) |  | MIC | <0.015 µg/mL |

2 of the rows above, restated:

structure | method | strain or isolate | dose | measure | result
Cn1nc(Cc2ccc(Cl)cc2)c2ccccc2c1=O | broth dilution | Clinical isolate (IM 000319) |  | MIC80 | 62.5 µg/mL
CCOC(=O)c1c(C)nc(NCCCCNc2ccnc3cc(Cl)ccc23)nc1-c1ccccc1[N+](=O)[O-] |  | VM-MCMMPI |  | MIC99 | 8 µg/mL

Lines come from different laboratories, so protocols vary. Percent inhibition refers to the dose given; in toxicity tests it is the harm to the cells. Zone: diameter of growth inhibition. An empty or dashed field is not shown.